Common to all, as to experiment: purified protein, by the assay type
Data set [1] deals with NADP^+. As to conditions: other: Aspartate oxidative deamination; Michaelis-Menten plots.
Data set [2] has as its system NADPH. Conditions: other: Oxaloacetate reductive amination.
In data set [3] the test system is NADH. Conditions: other: Oxaloacetate reductive amination; Michaelis-Menten plots.

What is called Km is the concentration of substrate that gives half-maximal velocity. One may read the Vmax as the rate approached at saturating substrate. As a reminder, the kcat is the number of substrate molecules converted per active site and unit of time at saturation. Usually kcat/Km stands for the turnover number divided by the Michaelis constant.

Take “Ralstonia eutropha ADH-Re (Cupriavidus necator H16)”: in data set [1], the Km amounted to 2700 ± 400 µM, the Vmax amounted to 10.9 µmol/min/mg, the kcat was determined as 5.5 s⁻¹ and the kcat/Km was determined as 2000 M⁻¹ s⁻¹. Besides, in data set [2] (Hill kinetic equation plots), the Km was 390 ± 40 µM, the Vmax was 137 µmol/min/mg, the kcat was determined as 68.3 s⁻¹ and the kcat/Km was 183000 M⁻¹ s⁻¹. Further, in data set [2] (Michaelis-Menten plots), the Km turned out to be 900 ± 300 µM, the Vmax turned out to be 220 µmol/min/mg, the kcat stood at 107 s⁻¹ and the kcat/Km came out at 117000 M⁻¹ s⁻¹. Also, in data set [3], the Km stood at 870 µM, the Vmax was 610 ± 40 µmol/min/mg, the kcat was 303.33 ± 18.33 s⁻¹ and the kcat/Km was found to be 350000 M⁻¹ s⁻¹.
